This is a selection; strong and weak results do not stand in their true shares. Some salts and complexes are drawn in separate pieces, as the source files them; their charges need not balance. Calls of active or inactive are those of the source. Rule as the data show it: active = inhibition above about 30%; inconclusive = no clear call, values can overlap the other calls; inactive = below that.

The source of these data is PubChem BioAssay AID588499 (NMMLSC, 2011).

For this experiment, the system named is Botulinum neurotoxin type A light chain protease (Clostridium botulinum A str. ATCC 3502). As to the kind of experiment: blockers of BoNT/A LC substrate cleavage – biochemical, flow cytometry, MLPCN library, primary screen (AID 588499). Also: plate controls were buffer without enzyme for full effect and enzyme alone for no effect. Conditions: multiplex microsphere protease substrate cleavage, at 10 µM, hits give high values. On the technique in general: Flow cytometry measures light scatter and fluorescence of single cells or particles in a stream.
Consider `O=C(OCCN1CCN(CCOCc2ccccc2)CC1)C(O)(c1ccccc1)c1ccccc1`, for which the inhibition (in general, the drop in the measured response relative to a control, in per cent) was inactive: 0.5%.
In the case of `O=C(OC1CN2CCC1CC2)c1ccc([N+](=O)[O-])cc1` (stereo not given) it was inactive: -0.5%; in that of `COc1ccc2c(c1O)-c1c(O)c(OC)cc3c1[C@H](C2)[N+](C)(C)CC3.O=[N+]([O-])c1cc([N+](=O)[O-])c([O-])c([N+](=O)[O-])c1[O-]`, inactive: -0.7%; in that of `COc1ccccc1OP(C)(=O)Nc1ccc(Br)cc1` (stereo not given), inactive: -0.1%.
In the case of `CN(C)CCOC(=O)C(O)(c1ccccc1)C1CCCC1` (stereo not given) it was inactive: -0.2%.
Under `COc1ccc(OP(C)(=O)Nc2ccccn2)cc1` (stereo not given) stands inactive: 0.3%; under `O=[N+]([O-])c1cc([N+](=O)[O-])c(Nc2ccccn2)c([N+](=O)[O-])c1`, inactive: 0.4%.
With `Cc1c(NP(C)(=O)Oc2ccc(C(C)C)cc2)c(=O)n(-c2ccccc2)n1C` (stereo not given), the inhibition was inactive: 3.7%.
In the case of `CCc1ccc(OP(C)(=O)O)cc1` it was inactive: 0.2%.
In the case of `CP(=O)(Nc1ccccn1)Oc1ccccc1` (stereo not given) it was inactive: 0.5%; in that of `COc1ccccc1OP(C)(=O)Nc1ccc(C)cc1C` (stereo not given), inactive: -0.5%; in that of `O=C1C(O)=C([N+](=O)[O-])C(=O)C(O)=C1[N+](=O)[O-]`, inactive: -0.1%.
On to `Cc1cc(C)cc(OP(C)(=O)Nc2cccc(C(F)(F)F)c2)c1` (stereo not given), for which the inhibition was inactive: -0.5%.
Under `COc1ccc(OP(C)(=O)Nc2ccccc2Br)cc1` (stereo not given) stands inactive: 0.6%; under `COc1ccccc1OP(C)(=O)Nc1ccc(C)c(C)c1` (stereo not given), inactive: -0.5%.
For `CP(=O)(OCCOc1ccccc1)OCCOc1ccccc1`, the inhibition is inactive: -0.8%.
`CP(=O)(Nc1ccc(Cl)cc1Cl)Oc1ccccc1` (stereo not given): the inhibition is inactive: -1.3%.
Under `CCCCCCCCCCCCCCCC1C[N+](C)(C)CCOP(C)(=O)O1` (stereo not given) stands inactive: -0.6%.
`CP(=O)(OC12CC3CC(CC(C3)C1)C2)OC12CC3CC(CC(C3)C1)C2`: the inhibition is inactive: -2.5%.
In the case of `CCOC(=O)c1ccc(NP(C)(=O)Oc2ccc(Cl)cc2)cc1` (stereo not given) it was inactive: -0.4%.
As to `CCN(CC)CC(O)COC(=O)C(O)(c1ccccc1)C1CCCCC1` (stereo not given), the inhibition was inactive: 1%.
Take `COc1ccc(OP(C)(=O)Nc2ccc(Br)cc2)cc1` (stereo not given): the inhibition was inactive: 0.5%.
Take `CP(=O)(Oc1ccccc1)N1CCOC1=O` (stereo not given): the inhibition was inactive: 0.4%.
Under `CCc1ccc(OP(C)(=O)Nc2cccnc2)cc1` (stereo not given) stands inactive: 0.1%.
Under `COc1ccccc1OP(C)(=O)Nc1c(C)n(C)n(-c2ccccc2)c1=O` (stereo not given) stands inactive: -0.4%; under `O=C(OCCCN1CCCC1)C(O)(c1ccccc1)C1CCCCC1` (stereo not given), inactive: 1.9%; under `CP(=O)(Nc1ccc(Cl)cc1)Oc1ccc(F)cc1` (stereo not given), inactive: -1.8%.
Under `CC(C)(C)c1ccc(OP(C)(=O)O)cc1` stands inactive: -0.2%.
In the case of `COc1ccccc1OP(C)(=O)Nc1ccccc1Br` (stereo not given), the inhibition was inactive: 0.9%.
As for `CN(C)C(=O)c1c([N+](=O)[O-])cc([N+](=O)[O-])cc1[N+](=O)[O-]`, the inhibition is inactive: -1%.
Under `Cc1ccc(Nc2c([N+](=O)[O-])cc([N+](=O)[O-])cc2[N+](=O)[O-])cc1` stands inactive: -0.3%.
In the case of `Cc1cccc(C)c1OP(C)(=O)Nc1ccc(SC(F)(F)F)cc1` (stereo not given) it was inactive: -0.1%.
In the case of `CP(=O)(Nc1ccc(SC(F)(F)F)cc1)Oc1ccc(Cl)cc1` (stereo not given) it was inactive: -0.9%; in that of `CP(=O)(Oc1ccccc1)OC(c1ccccc1)C(F)(F)F` (stereo not given), inactive: -0.3%; in that of `CCc1ccc(OP(C)(=O)N2CCN(c3ccc([N+](=O)[O-])cc3)CC2)cc1` (stereo not given), inactive: 1.6%.
Turning to `CP(=O)(NC(=O)Nc1ccccc1)Oc1ccccc1` (stereo not given), the inhibition was inactive: -0.6%.
In the case of `Cc1cc(C)cc(OP(C)(=O)Nc2ccc(SC(F)(F)F)cc2)c1` (stereo not given), the inhibition is inactive: -0.4%.
In the case of `CCOP(C)(=S)SCC(=O)NC(C)C(=O)O` (stereo not given) it was inactive: 0.2%; in that of `CCOC(=O)c1ccc(NP(C)(=O)Oc2ccc(OC)cc2)cc1` (stereo not given), inactive: -0.7%.
`CP(=O)(Nc1ccccn1)Oc1ccc(Cl)cc1` (stereo not given): the inhibition was inactive: -0.2%.
In the case of `CP(=S)(Nn1cnnc1)Oc1ccccc1` (stereo not given) it was inactive: -0.4%.
Under `COc1ccccc1OP(C)(=O)Nc1ccccc1` (stereo not given) stands inactive: 1.1%; under `CP(=O)(Nc1ccccc1Br)Oc1ccccc1` (stereo not given), inactive: -0.2%; under `O=[N+]([O-])c1cc([N+](=O)[O-])c(Nc2cccnc2)c([N+](=O)[O-])c1`, inactive: -1%.
Under `CC(C)(C)c1ccc(OP(C)(=O)Nc2ccc(SC(F)(F)F)cc2)cc1` (stereo not given) stands inactive: -0.5%.
For `Cc1cccc(C)c1OP(C)(N)=O` (stereo not given), the inhibition was inactive: -0.4%.
Under `O=[N+]([O-])c1ccc2c(c1)C=Nc1ccccc1O2` stands inactive: 0.2%; under `CCOC(=O)c1ccc(NP(C)(=O)Oc2ccccc2)cc1` (stereo not given), inactive: -0.1%.
In the case of `COc1ccccc1OP(C)(=O)Nc1ccc(C)cc1` (stereo not given) it was inactive: 0.2%.
In the case of `Cc1ccc(NP(C)(=O)Oc2ccccc2)c(C)c1` (stereo not given) it was inactive: -0.6%; in that of `COc1ccccc1OP(C)(=O)Nc1cc(Cl)ccc1C` (stereo not given), inactive: -1.9%; in that of `COc1ccc(OP(C)(=O)Nc2cccc(F)c2)cc1` (stereo not given), inactive: -0.6%.
For `Cc1cc(C)cc(OP(C)(N)=O)c1` (stereo not given), the inhibition is inactive: 1.5%.
Under `CCN(CC)CCCOC(=O)C(O)(c1ccccc1)c1ccccc1` stands inactive: -0.6%.
Under `COc1ccccc1-c1ccccn1.O=[N+]([O-])c1cc([N+](=O)[O-])c(O)c([N+](=O)[O-])c1` stands inactive: 0%; under `COc1ccccc1OP(C)(=O)Nc1cccc(Br)c1` (stereo not given), inactive: -1.3%; under `Cc1cc(C)cc(OP(C)(=O)Nc2ccc(C)cc2C)c1` (stereo not given), inactive: 0%.
In the case of `CCOC(=O)c1ccc(NP(C)(=O)Oc2cc(C)cc(C)c2)cc1` (stereo not given) it was inactive: 0.2%; in that of `CP(=O)(Nc1cccc(Br)c1)Oc1ccccc1` (stereo not given), inactive: -1.1%.
Regarding `Cc1cc(C)cc(OP(C)(=O)Nc2ccccn2)c1` (stereo not given), the inhibition was inactive: -0.3%.
In the case of `Cc1ccc(C)c(NP(C)(=O)Oc2ccccc2)c1` (stereo not given), the inhibition is inactive: -2%.
In the case of `O=C(O)c1cccc(Nc2c([N+](=O)[O-])cc([N+](=O)[O-])cc2[N+](=O)[O-])c1` it was inactive: 0.7%; in that of `CC1=NCCc2c1[nH]c1ccccc21.O=[N+]([O-])c1cc([N+](=O)[O-])c(O)c([N+](=O)[O-])c1`, inactive: 4.6%.
In the case of `O=[N+]([O-])c1cc([N+](=O)[O-])c(Nc2nnnn2CCO)c([N+](=O)[O-])c1` it was inactive: 3%.
Under `CC1=C2N=C(C=C3N=C(C(C)=C4[N-][C@@](C)([C@@H]5N=C1[C@](C)(CCC(=O)NC[C@@H](C)OP(=O)([O-])O[C@H]1[C@@H](O)[C@@H](n6cnc7cc(C)c(C)cc76)O[C@@H]1CO)[C@H]5CC(N)=O)[C@@](C)(CC(N)=O)[C@@H]4CCC(N)=O)[C@@](C)(CC(N)=O)[C@@H]3CCC(N)=O)C(C)(C)[C@@H]2CCC(N)=O.[C-]#N.[Co+3]` stands inactive: -0.6%; under `CCOC(=O)C(CC)C1=NC(C)(C)Cc2ccccc21.O=[N+]([O-])c1cc([N+](=O)[O-])c(O)c([N+](=O)[O-])c1` (stereo not given), inactive: -0.7%.
As to `COc1ccccc1OP(C)(=O)Nc1c(C)cccc1C` (stereo not given), the inhibition was inactive: -1%.
Under `CN1CCCCC1COC(=O)C1(O)c2ccccc2CCc2ccccc21` (stereo not given) stands inactive: -0.8%.
Under `CP(=O)(Nc1ccc(SC(F)(F)F)cc1)Oc1ccccc1` (stereo not given) stands inactive: 0.2%; under `CCCOc1ccc(NP(C)(=O)Oc2ccc(Cl)cc2)cc1` (stereo not given), inactive: -2.1%; under `COc1ccc(-c2ccccn2)cc1.O=[N+]([O-])c1cc([N+](=O)[O-])c(O)c([N+](=O)[O-])c1`, inactive: -1.3%.
Under `O=[N+]([O-])c1cc([N+](=O)[O-])c(-n2nnc3ccccc32)c([N+](=O)[O-])c1` stands inactive: 1.2%.
For the compound `CN(Cc1cccnc1)C(=O)COc1ccc(Cl)c(Cl)c1.O=[N+]([O-])c1cc([N+](=O)[O-])c(O)c([N+](=O)[O-])c1`, the inhibition was inactive: 0.1%.
In the case of `O=[N+]([O-])c1cc([N+](=O)[O-])c(-c2cnn(-c3ccccc3)c2)c([N+](=O)[O-])c1`, the inhibition was inactive: 0.1%.
Under `Cc1nc2ccc3ccccc3c2s1.O=[N+]([O-])c1cc([N+](=O)[O-])c(O)c([N+](=O)[O-])c1` stands inactive: -0.2%.
